The source of these data is PubChem BioAssay AID449764 (Southern Research Specialized Biocontainment Screening …, 2010).

The term IC90 denotes the concentration needed for an effect of 90%. A high value points to a need for much substance.

The subject of the assay is Mycobacterium tuberculosis H37Rv growth inhibition, no glycerol. Put plainly: Mycobacterium tuberculosis H37Rv growth inhibition, no glycerol, confirmatory dose response (AID 449764).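 Note: growth read after 7 days of incubation.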 The settings on record: measured here: IC90 growth inhibition.

Regarding `O=[N+]([O-])c1cc([N+](=O)[O-])c(-c2cnn(-c3ccccc3)c2)c([N+](=O)[O-])c1`, the IC90 came to 11.9 µM.
